In US20040232089A1, “Biocidal compounds for treating water” (VANETTA S.p.A., priority 2003, published 2004):

Assay: Biodegradability OECD 301 A (92/69/EEC C4-A)
Method: In fact, based on data available with respect to the most similar compounds to the menadione derivatives disclosed herein, one would expect a degradability in the range of 0% (percentage calculated based on the initial mass expressed in mg/l) typical of menadione (2-methyl-1,4-naphthalenedione) and 17% (assessed after 28 days) typical of menadione sodium bisulphite (which calculation was performed in accordance with the guidelines OECD301 A attached to directive EEC 92/69/EEC C4-A).
Finally biodegradability was also evaluated according to standard 92/69/EEC C4-A. From the data, both MNB and MPB result to have a remarkably better biodegradability than 2-methyl-1,4-naphthalenedione and particularly than MSB.

Row | SMILES | % biodegr. OECD 301 A (after 7 days) | % biodegr. OECD 301 A (after 14 days) | % biodegr. OECD 301 A (after 28 days)
1 | CC1(S(=O)(=O)O)CC(=O)c2ccccc2C1=O.Cc1cc(C)[nH]c(=O)n1 (stereo not drawn) [MPB, menadione dimethylpyrimidinole bisulphite] | 37% | 37% | 40%
2 | CC1(S(=O)(=O)[O-])CC(=O)c2ccccc2C1=O.[Na+] (stereo not drawn) [MSB, menadione sodium bisulphite] | 5% | 10% | 17%
3 | CC1=CC(=O)c2ccccc2C1=O [Menadione, 2-methyl-1,4-naphthalenedione, reference compound] | 0% | 0% | 0%
